Assay results reported in PMC2885016 (Nature, 2010).

Biological target: T1, human Cyclin T1 (1-266) (human, UniProt O60563 1-266)
T1 sequence (looked up): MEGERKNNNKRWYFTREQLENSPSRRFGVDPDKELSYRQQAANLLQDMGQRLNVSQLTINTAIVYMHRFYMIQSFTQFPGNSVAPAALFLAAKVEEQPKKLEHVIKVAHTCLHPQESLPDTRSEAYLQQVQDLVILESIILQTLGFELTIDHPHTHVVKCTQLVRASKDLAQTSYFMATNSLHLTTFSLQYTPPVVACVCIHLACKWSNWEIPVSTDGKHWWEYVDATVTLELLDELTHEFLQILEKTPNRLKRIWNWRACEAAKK
Assay: SDS-PAGE of dissolved crystals

stoichiometry N: 1
B1: human Cdk9 ([…]), C-terminally His-tagged (enzyme)
chain: not shown
modifications: phospho-Thr186
